Molecules are shown by their SMILES. Converted amounts (≈) assume the structure as drawn.

The results in this text go back to article PMC7915666, “Antitrypanosomal and Antileishmanial Activity of Chalcones and Flavanones from Polygonum salicifolium” (Pathogens, 2021).

In the assay the test system is L. mexicana strain MNY/BZ/62/M379 promastigotes. The experiment in a line: Alamar Blue (resazurin) assay, L. mexicana promastigotes.

Take `COc1cc(O)c(OC)c(O)c1C(=O)/C=C/c1ccccc1` [Compound 2, 2′,5′-dimethoxy-4′,6′-dihydroxychalcone]: the “fold less activity than compound 1 against L. mexicana” value (relative to compound 1) was about 5 fold.

In the case of `COc1cc(OC)c2c(c1)OC(c1ccccc1)CC2=O` (centres unmarked) [Compound 3, 5,7-dimethoxyflavanone], the “activity against Leishmania promastigotes / L. mexicana (in words)” value is on record as “poor”.

One may read the EC50 as the concentration that produces a half-maximal response. On to `COc1cc(O)c(C(=O)/C=C/c2ccccc2)c(OC)c1` [Compound 1, 2′,4′-dimethoxy-6′-hydroxychalcone], for which the “activity against Leishmania promastigotes / L. mexicana (in words)” value is given as “reasonable activity”. The EC50 (Leishmania mexicana, read-out: EC50 against Leishmania mexicana) is 5.2 µg/mL (≈ 18.3 µM).

For the molecule `COc1cc(O)c(OC)c2c1C(=O)CC(c1ccccc1)O2` (centres unmarked) [Compound 4, 5,8-dimethoxy-7-hydroxyflavanone], the “activity against Leishmania promastigotes / L. mexicana (in words)” value was “poor”.
